Among the data in PMC7096397, “Improving the drug-likeness of inspiring natural products - evaluation of the antiparasitic activity against Trypanosoma cruzi through semi-synthetic and simplified analogues of licarin A” (Scientific Reports, 2020) are SI trypo and SI ama values, retold here.

A value given as a limit tells only on which side of the number the result lay.

The subject of one data set is T. cruzi (Y strain) trypomastigotes. The data set can be described thus: Anti-trypomastigote assay (resazurin viability). To be noted: CC50 against NCTC cells/IC50 against trypomastigotes. Format: cell-based, Trypanosoma cruzi. Here is the method:
(§1) The cells and parasites were kept at 37 °C in a humidified atmosphere containing 5% CO2.
Benznidazole was used as the standard drug. The optical density was determined in FilterMax F5 (Molecular Devices) at 570 nm[38].
(§2) IC50 and CC50 values were calculated using a sigmoid dose-response curves in Graph–Pad Prism 5.0 software (GraphPad Software - San Diego, CA, USA). For the mechanism of action studies one-way ANOVA (Turkey’s Multiple Comparison test) was used for significance (p < 0.05). The assays were repeated at least twice and the samples were tested in duplicate.
In the case of `C/C=C/c1cc(OC)c2c(c1)[C@H](C)[C@@H](c1ccc(OC)c(OC)c1)O2` [1a, (2S,3 S)-2-(3,4-dimethoxyphenyl)-7-methoxy-3-methyl-5-[(E)-prop-1-enyl]-2,3-dihydrobenzo-furan], the SI trypo is over 7.1.

On to `C/C=C/c1cc(OC)c2c(c1)[C@H](C)[C@@H](c1ccc(OC(C)=O)c(OC)c1)O2` [1b, [2-methoxy-4-[(2S,3 S)-7-methoxy-3-methyl-5-[(E)-prop-1-enyl]-2,3-dihydrobenzofuran-2-yl]phenyl] acetate], for which the SI trypo came out at 3.7.

For the molecule `C=CCc1cc([C@H]2Oc3c(OC)cc(/C=C/C)cc3[C@@H]2C)cc(OC)c1O` [1d, 2-allyl-6-methoxy-4-[(2S,3 S)-7-methoxy-3-methyl-5-[(E)-prop-1-enyl]-2,3-dihydrobenzofuran-2-yl]phenol], the SI trypo is given as 9.0.

`C/C=C/c1cc(OC)c2c(c1)[C@H](C)[C@@H](c1cc(OC)c3oc(C)cc3c1)O2` [1e, 7-methoxy-5-[(2 S,3 S)-7-methoxy-3-methyl-5-[(E)-prop-1-enyl]-2,3-dihydrobenzofuran-2-yl]-2-methyl-benzofuran] returned an SI trypo of over 19.0.

Take `COc1cc(CO)ccc1OC(C)=O` [3b, [4-(hydroxymethyl)-2-methoxy-phenyl] acetate]: the SI trypo is recorded as 9.0.

Turning to `C/C=C/c1ccc(OC(C)=O)c(OC)c1` [4b, [2-methoxy-4-[(E)-prop-1-enyl]phenyl] acetate], the SI trypo is given as over 3.7.

Molecule `C=CCc1cc(/C=C/C)cc(OC)c1O` [4d, 2-allyl-6-methoxy-4-[(E)-prop-1-enyl]phenol] had an SI trypo of over 9.5.

The molecule `O=C(Cn1ccnc1[N+](=O)[O-])NCc1ccccc1` [Bnz, benznidazole, reference compound] displayed an SI trypo of over 36.4.

`C/C=C/c1cc(OC)c2c(c1)[C@H](C)[C@@H](c1ccc(O)c(OC)c1)O2` [compound 1, Licarin A] yielded an SI trypo of over 3.7.

Another data set deals with T. cruzi intracellular amastigotes. The data set can be described thus: Anti-amastigote assay in infected peritoneal macrophages (infection index). The settings on record: CC50 against NCTC cells/IC50 against amastigotes. The format is cell-based, Trypanosoma cruzi. As to the method: as §1
The cells were plated on a 16-well chamber slide – NUNC (Thermo Fisher Scientific) at 1 × 10^5 cells/well and incubated for 24 h at 37 °C in a 5% CO2 humidified incubator. […] Tested compounds were subsequently incubated with infected macrophages for 48 h at 37 °C (5% CO2 humidified incubator) in different nontoxic concentrations. Benznidazole was used as standard drug. At the end of the assay, slides were fixed with MeOH and stained with Giemsa, counted under a light microscope (EVOS M5000, Thermo, USA) and IC50 values were determined by the infection index.
as §2
Molecule `COc1cc(C=O)ccc1OC(C)=O` [2b, (4-formyl-2-methoxy-phenyl) acetate] had an SI ama of over 35.6.

In turn, `C=CCc1cc(/C=C/C)cc(OC)c1O` [4d, 2-allyl-6-methoxy-4-[(E)-prop-1-enyl]phenol] came in with an SI ama of over 19.1.

Molecule `O=C(Cn1ccnc1[N+](=O)[O-])NCc1ccccc1` [Bnz, benznidazole, reference compound] showed an SI ama of over 10.7.
